# System: Enterobacteriaceae
# Experiment: Broth microdilution MIC by tetracycline resistance phenotype (Table 10)
# Type: cell-based
# Set-up: unit not given beside the values
smiles,measurement,setting,value
"CN(C)[C@@H]1C(O)=C(C(N)=O)C(=O)[C@@]2(O)C(O)=C3C(=O)c4c(O)cccc4[C@@](C)(O)[C@H]3C[C@@H]12 [Tetracycline, tetracycline]",MIC50,"TET NS, n=137",>8
same,MIC90,"TET NS, n=137",>8
same,MIC50,"TET S, n=168",1
same,MIC90,"TET S, n=168",4

# From patent US20170107179A1 (Tetraphase Pharmaceuticals, Inc., priority 2010, published 2017)
